Measured values from several laboratories, pooled; numbers as filed in NIAID ChemDB.

All rows: toxicity to cultured cells; cell line: PBMC; endpoint: CC50

Neighbouring rows are from separate reports.

structure,method,value
O=C(O)c1cc(O)c(O)c(O)c1,MTT,825 µM
COc1ccc(NC(=O)NCCc2ccc3c(n2)NCCC3)cc1OC,-,0.68 µM
Cc1cn([C@H]2CO[C@@H](CO[P@]3(=O)OCC[C@H](c4ccccc4)O3)O2)c(=O)[nH]c1=O,MTT,>100 µM
CCOC(=O)[C@H](C)NP(=O)(OC[C@@H]1OC[C@H](n2cnc3c(OC)nc(N)nc32)O1)Oc1ccccc1,MTT,>100 µM
CCCCCCCCCCCCCCCCOCCCOP(=O)(N[C@@H](C)C(=O)OC)OC[C@@H]1OC[C@H](n2cc(C)c(=O)[nH]c2=O)O1,MTT,19.7 µM
COC(=O)[C@H](C)NP(=O)(OC[C@@H]1C=C[C@H](n2cc(C)c(=O)[nH]c2=O)O1)Oc1ccc(Br)cc1,-,>10 µM
COC(=O)[C@H](C)NP(=O)(OC[C@@H]1OC[C@H](n2cc(C)c(=O)[nH]c2=O)O1)Oc1cccc2ccccc12,MTT,>100 µM
COc1nc(N)nc2c1ncn2[C@H]1CO[C@@H](CO)O1,MTT,>100 µM
CCCCCCCCCCCCCCCCOCCCOP(=O)(C/C=C(\C)Cn1cc(C(N)=O)nn1)OCOC(=O)OC(C)C,absorbance,66.4 µM
O=c1ccn([C@H]2C[C@@H](CO)C=C2F)c(=O)[nH]1,MTT,>100 µM
Nc1nc(=O)n([C@H]2O[C@@H](CO)C=C2F)cc1F,-,>100 µM
Cc1cn([C@@H]2C[C@H](CO)C=C2F)c(=O)[nH]c1=O,MTT,>100 µM
CCCCCCCC(=O)NCc1cn(C/C(C)=C/CP(=O)(OCOC(=O)OC(C)C)OCOC(=O)OC(C)C)nn1,absorbance,51.5 µM
Nc1ccn([C@@H]2C[C@H](CO)C=C2F)c(=O)n1,MTT,>100 µM
C=C[C@]1(OCP(=O)(O)O)C[C@@H](n2cnc3c(N)ncnc32)C=C1F,MTT,≥10 µM
Cc1cc2ccccc2c(-c2ccc3c4c(ccnc24)CCO3)c1[C@H](OC(C)(C)C)C(=O)O,MTT,>90 µM
Nc1nc2c(ncn2[C@H]2C[C@@H](CO)C=C2F)c(=O)[nH]1,MTT,>100 µM
CCCCCCCCCCCOC(=O)c1cc(O)c(O)c(O)c1,MTT,2048 µM
Cc1cn([C@H]2CO[C@@H](COP(=O)(N[C@@H](C)C(=O)OCc3ccccc3)Oc3cccc4ccccc34)O2)c(=O)[nH]c1=O,MTT,>100 µM
CCNC(=O)c1cn(C/C(C)=C/CP(=O)(OCOC(=O)OC(C)C)OCOC(=O)OC(C)C)nn1,absorbance,80.6 µM
C[C@@H](NC(=O)c1nc(-c2ccc(C(=O)OCc3ccccc3)cn2)[nH]c(=O)c1O)C1CCCCC1,absorbance,<0.4 µM
O=C(NCCc1ccc2c(n1)NCCC2)Nc1ccc(Cl)c(Cl)c1,-,1.5 µM
Cc1cn([C@H]2C[C@H](N=[N+]=[N-])[C@@H](CO)O2)c(=O)[nH]c1=O,absorbance,1360 µM
O=C(NCCc1ccc2c(n1)NCCC2)NCc1ccc(Cl)cc1Cl,-,4.24 µM
CCCc1ccc(-c2cn(C/C(C)=C/CP(=O)(OCOC(=O)OC(C)C)OCOC(=O)OC(C)C)nn2)cc1,absorbance,50.2 µM
COc1ccc(CCNC(=O)NCCc2ccc3c(n2)NCCC3)cc1,-,50 µM
CCCCCCCCCCCCCCCCCCOC(=O)c1cc(O)c(O)c(O)c1,MTT,1145 µM
Cc1sccc1NC(=O)NCCc1ccc2c(n1)NCCC2,-,50 µM
COC(=O)[C@H](C)NP(=O)(OC[C@@H]1C=C[C@H](n2cc(C)c(=O)[nH]c2=O)O1)Oc1ccc(OC)cc1,-,>10 µM
COc1ccc(OC)c(NC(=O)NCCc2ccc3c(n2)NCCC3)c1,-,7.7 µM
COc1ccnc2[nH]cc(C(=O)C(=O)N3CCN(C(=O)c4ccccc4)C[C@H]3C)c12,-,>225 µM
O=C(NCCc1ccc2c(n1)NCCC2)Nc1cccc(-c2ccc(Cl)cc2)n1,-,50 µM
Nc1ncnc2c1ccn2[C@H]1C=C[C@@H](CO)C1,-,>100 µM
O=c1[nH]cnc2c1ncn2[C@@H]1C[C@H](CO)C=C1F,MTT,>100 µM
CSCSc1nc(Cc2cc(C)cc(C)c2)c(C(C)C)c(=O)[nH]1,-,>100 µM
CCCCCCCCCCCCCCCCOCCCOP(=O)(C/C=C(\C)Cn1cc(-c2ccc(CCCCC)cc2)nn1)OCOC(=O)OC(C)C,absorbance,50.5 µM
COC(=O)[C@@H](Cc1ccccc1)NP(=O)(OC[C@@H]1OC[C@H](n2cc(C)c(=O)[nH]c2=O)O1)Oc1ccccc1,MTT,40.1 µM
Cc1cn([C@@H]2C[C@@H](F)[C@H](CO)O2)c(=O)[nH]c1=O,-,>100 µM
COc1cccc(CNC(=O)NCCc2ccc3c(n2)NCCC3)c1,-,50 µM
CCOC(=O)[C@H](C)NP(=O)(OC[C@@H]1OC[C@H](n2cnc3c(=O)[nH]c(N)nc32)O1)Oc1ccccc1,MTT,>100 µM
Cc1ccnc2c1NC(=O)c1cccnc1N2C1CC1,XTT,>1000 µM
C/C(=C\CP(=O)(OCOC(=O)OC(C)C)OCOC(=O)OC(C)C)Cn1cc(C2CC2)nn1,absorbance,25.5 µM
CSCSc1nc(Cc2ccccc2)c(C(C)C)c(=O)[nH]1,-,>100 µM
Cc1cn([C@H]2CO[C@@H](COP(=O)(N[C@@H](C)C(=O)OC(C)(C)C)Oc3ccccc3)O2)c(=O)[nH]c1=O,MTT,>100 µM
Nc1ncnc2c1ncn2[C@H]1C=C(F)[C@@](CO)(OCP(=O)(O)O)C1,MTT,≥10 µM
CC(C)OC(=O)OCOP(=O)(CO[C@H](C)Cn1cnc2c(N)ncnc21)OCOC(=O)OC(C)C,MTT,17.34 µM
CC1(C)CCC2=C(O1)c1ccccc1C(=O)C2=O,-,~2.5 µM
CCCCC#CCS(=O)(=O)c1ccccc1OC(C)=O,MTT,345 µM
O=C(NCCc1ccc2c(n1)NCCC2)NC(c1ccccc1)c1ccccc1,-,50 µM
CCCCC#CCSc1ccccc1O,MTT,3 µM
COC(=O)[C@H](C)NP(=O)(OC[C@@H]1OC[C@H](n2cc(C)c(=O)[nH]c2=O)O1)Oc1ccc(Cl)cc1,MTT,78.4 µM
CC(C)CCC[C@@H](C)[C@H]1CCC2C3CCC4C[C@@H](O[C@@H]5O[C@H](COS(=O)(=O)[O-])[C@@H](O[C@H]6O[C@H](COS(=O)(=O)[O-])[C@@H](O[C@H]7O[C@H](COS(=O)(=O)[O-])[C@@H](O[C@H]8O[C@H](COS(=O)(=O)[O-])[C@@H](OS(=O)(=O)[O-])[C@H](OS(=O)(=O)[O-])[C@H]8OS(=O)(=O)[O-])[C@H](OS(=O)(=O)[O-])[C@H]7OS(=O)(=O)[O-])[C@H](OS(=O)(=O)[O-])[C@H]6OS(=O)(=O)[O-])[C@H](OS(=O)(=O)[O-])[C@H]5OS(=O)(=O)[O-])CC[C@]4(C)C3CC[C@@]21C,-,650 µg/mL
CCCCCCCCCCOC(=O)c1cc(O)c(O)c(O)c1,MTT,2335 µM
Nc1nc2c(ncn2[C@@H]2C[C@H](CO)C=C2F)c(=O)[nH]1,MTT,>100 µM
CCCCCCCS(=O)(=O)c1ccccc1OC(C)=O,MTT,205 µM

5 of the rows above, restated:

CCCCC#CCSc1ccccc1O ; method: MTT ; value: 3 µM
CCCCCCCCCCCCCCCCOCCCOP(=O)(C/C=C(\C)Cn1cc(C(N)=O)nn1)OCOC(=O)OC(C)C ; method: absorbance ; value: 66.4 µM
CCCCCCCCCCCCCCCCOCCCOP(=O)(N[C@@H](C)C(=O)OC)OC[C@@H]1OC[C@H](n2cc(C)c(=O)[nH]c2=O)O1 ; method: MTT ; value: 19.7 µM
CSCSc1nc(Cc2ccccc2)c(C(C)C)c(=O)[nH]1 ; value: >100 µM
CCNC(=O)c1cn(C/C(C)=C/CP(=O)(OCOC(=O)OC(C)C)OCOC(=O)OC(C)C)nn1 ; method: absorbance ; value: 80.6 µM

Blank or dashed fields: not listed here. CCn: concentration that lowers growth or viability of the cells by n%.